Anti-infective test results gathered from many reports (values: NIAID ChemDB through PubChem).

Shared fields: whole-cell or culture tests; organism: Bovine viral diarrhea virus

Inhibition is in % at the dose shown (toxicity tests: loss of growth or viability). Rows are shuffled and stem from different studies. ECn is the concentration giving n% inhibition of infection, replication or growth. Blank or dashed fields: not listed here.

SMILES | strain | tested at | endpoint | method | cells | result
CC(C)N=C(N)c1ccc(-c2ccc(-c3nc4ccc(C(N)=NC(C)C)cc4[nH]3)o2)cc1 | - | 5 µM | inhibition | - | MDBK | 43%
O=[N+]([O-])c1ccc(NC(=S)N=Nc2c(O)[nH]c3ccc([N+](=O)[O-])cc23)cc1 | - | - | EC50 | cytopathic effect | MDBK | >22 µg/mL
Cc1ccc(Cn2ccc3nc(-c4ccccc4)nc-3c2)cc1 | PE515 | - | EC50 | cytopathic effect | MDBK | 0.043 µg/mL
O=c1nc(NO)ccn1[C@H]1O[C@@H](CO)[C@H](O)[C@@H]1F | - | - | EC90 | PCR | MDBK | 5.4 µM
Fc1cccc(Cn2ccc3nc(-c4ccccc4)nc-3c2)c1 | PE515 | - | EC50 | cytopathic effect | MDBK | 0.246 µg/mL
CO/N=C(/N)c1ccc(-c2ccc(-c3ccc(/C(N)=N\OC)cc3)o2)cc1 | - | 5 µM | inhibition | - | MDBK | 0%
Brc1ccc(Cn2ccc3nc(-c4ccccc4)nc-3c2)cc1 | NADL (TYPE 1) | - | EC50 | ELISA | MDBK | 0.33 µM
C[C@@]1(F)[C@H](O)[C@@H](CO)O[C@H]1n1ccc(N)nc1=O | - | - | EC90 | replicon | MDBK | >100 µM
NCCCCC(N)C(=O)Nc1ccc(-c2ccc(NC(=O)Nc3nc4c(Cl)cccc4s3)nc2)cc1 | NADL | - | EC50 | plaque count | MDBK | 0.7 µM
N=C(N)c1ccc(-c2ccc(-c3ccc(C(=N)N)cc3)o2)cc1 | - | 25 µM | inhibition | - | MDBK | >99%
O=c1nc(NO)ccn1[C@@H]1O[C@H](CO)[C@@H](O)[C@H]1O | - | 2 µM | inhibition | virus yield | MDCK | 90%
O=[N+]([O-])c1ccc2[nH]c(O)c(N=NC(=S)Nc3ccc(Cl)cc3)c2c1 | - | - | EC50 | cytopathic effect | MDBK | >19 µg/mL
CSc1ccn([C@@H]2O[C@H](CO)[C@@H](O)[C@H]2F)c(=O)n1 | - | - | EC90 | PCR | MDBK | >100 µM
O=C1Nc2ccc([N+](=O)[O-])cc2/C1=N/N=C1/SCC(=O)N1c1ccc(Br)cc1 | - | - | EC50 | cytopathic effect | MDBK | >5 µg/mL
c1ccc(-c2nc3ccn(Cc4cccc5ccccc45)cc-3n2)cc1 | PE515 | - | EC50 | cytopathic effect | MDBK | 0.455 µg/mL
O=[N+]([O-])c1ccc2c(c1)c(N=NC(=S)Nc1ccc(Cl)cc1)c(O)n2CN1CCOCC1 | - | - | EC50 | cytopathic effect | MDBK | >17 µg/mL
CN(C)c1cccc(-c2nc3ccn(Cc4ccc(Br)cc4)cc-3n2)c1 | PE515 | - | EC50 | cytopathic effect | MDBK | 0.015 µg/mL
O=[N+]([O-])c1ccc2[nH]c(O)c(N=NC(=S)Nc3ccc(F)cc3)c2c1 | - | - | EC50 | cytopathic effect | MDBK | >20 µg/mL
FC(F)(F)c1cccc(Cn2ccc3nc(-c4ccccc4)nc-3c2)c1 | PE515 | - | EC50 | cytopathic effect | MDBK | 0.58 µg/mL

Repeating the first 2 entries:

SMILES,strain,tested at,endpoint,method,cells,result
CC(C)N=C(N)c1ccc(-c2ccc(-c3nc4ccc(C(N)=NC(C)C)cc4[nH]3)o2)cc1,-,5 µM,inhibition,-,MDBK,43%
O=[N+]([O-])c1ccc(NC(=S)N=Nc2c(O)[nH]c3ccc([N+](=O)[O-])cc23)cc1,-,-,EC50,cytopathic effect,MDBK,>22 µg/mL